Results published in PMC8286831, “Identifying SARS-CoV-2 antiviral compounds by screening for small molecule inhibitors of nsp13 helicase” (Biochemical Journal, 2021).

Target: SARS-CoV-2 nsp13 helicase (Severe acute respiratory syndrome coronavirus 2, UniProt P0DTD1)
Test: FRET-based nsp13 helicase assay
Type: biochemical
Conditions: read-out: IC50 No detergent

## Cn1cc(-c2ccc3ncc(Cc4ccc5ncccc5c4)n3n2)cn1
  IC50: 75 µM
